A mixed list of measured activities; the numbers were collected in NIAID ChemDB.

Common to all: cytotoxicity tests; cell line: Huh 5-2; measure: CC50

CCn is the concentration with n% toxicity to the cells. Rows are shuffled and stem from different studies.

{"compound": "COC(=O)/C=C1\\S/C(=N/N=C/c2cc(OC)c(O)c(OC)c2)NC1=O", "read by": "MTS / absorbance", "value": "26.2 µM"}
{"compound": "[N-]=[N+]=NC[C@@]1(O)[C@@H](CO)O[C@@H](n2cnc3c(=O)[nH]cnc32)[C@@H]1O", "read by": "WST", "value": ">100 µM"}
{"compound": "COc1ccccc1N1CCN(C(=O)CNc2ccc(S(=O)(=O)/N=C3\\NC(=O)/C(=C/c4ccc(-c5ccccc5)cc4)S3)cc2)CC1", "read by": "MTS", "value": ">75 µM"}
{"compound": "CC(=O)OC[C@H]1O[C@@H](n2c(=S)[nH]c3cc(C)ccc32)[C@H](OC(C)=O)[C@@H](OC(C)=O)[C@@H]1OC(C)=O", "value": ">101 µM"}
{"compound": "Brc1ccc(Cn2cc3nc(-c4ccccc4)nc-3c(Br)c2)cc1", "value": "8 µg/mL"}
{"compound": "O=c1ccoc2cc(-c3ccccc3)c(OCc3cccc([N+](=O)[O-])c3)c(O)c12", "read by": "WST", "value": "35 µM"}
{"compound": "COc1ccc(/C=C2\\S/C(=N/S(=O)(=O)c3ccc(F)cc3)NC2=O)cc1", "read by": "MTS", "value": "88.77 µM"}
{"compound": "NC(=O)c1nc(C#CCC2=CCCCC2)n(COCCO)n1", "value": ">50 µg/mL"}
{"compound": "[N-]=[N+]=NC[C@@]1(O)[C@@H](CO)O[C@@H](n2cnc3c(N)ncnc32)[C@@H]1O", "read by": "WST", "value": "12.3 µM"}
{"compound": "COC(=O)/C=C1\\S/C(=N/N=C/c2c(F)cccc2Cl)NC1=O", "read by": "MTS / absorbance", "value": ">50 µM"}
{"compound": "CCCCCc1ccc(CC#Cc2nc(C(N)=O)nn2COCCO)cc1", "value": "25 µg/mL"}
{"compound": "COc1cc(OC)cc(N(C)c2cc(OP(=O)(O)OP(=O)(O)O)c(N)cc2C(=O)O)c1", "value": ">50 µg/mL"}
{"compound": "O=C(O)c1cc(C2CCCCC2)c(=O)n2c1sc1ccc(OC3CCCCC3)cc12", "read by": "MTS", "value": "23 µM"}
{"compound": "COC(=O)/C=C1\\S/C(=N/N=C/c2cccc(OC)c2)NC1=O", "read by": "MTS / absorbance", "value": ">50 µM"}
{"compound": "COc1ccc(N(Cc2c(Cl)cccc2Cl)S(=O)(=O)c2cccc(C#N)c2)cc1C(=O)O", "read by": "absorbance", "value": ">33 µM"}
{"compound": "NC(=O)c1nc(C#CCC2(O)CCCC2)n(COCCO)n1", "value": ">50 µg/mL"}
{"compound": "COc1cccc(-c2nc3ccn(Cc4ccc(Br)cc4)cc-3n2)c1", "value": "2 µg/mL"}
{"compound": "NC(=O)c1nc(C#CCC2(O)CCCCC2)n(COCCO)n1", "value": ">50 µg/mL"}
{"compound": "Nc1ccc(S(=O)(=O)/N=C2/NC(=O)/C(=C/c3ccccc3Cl)S2)cc1", "read by": "MTS", "value": ">127 µM"}
{"compound": "COC(=O)/C=C1\\S/C(=N/N=C/c2cc([N+](=O)[O-])ccc2O)NC1=O", "read by": "MTS / absorbance", "value": "5.86 µM"}
{"compound": "CNc1ncnc2c1ncn2[C@@H]1O[C@H](CO)[C@](O)(CN=[N+]=[N-])[C@H]1O", "read by": "WST", "value": ">100 µM"}
{"compound": "COC(=O)/C=C1\\S/C(=N/N=C/c2cccc(Br)c2)NC1=O", "read by": "MTS / absorbance", "value": "23.2 µM"}
{"compound": "NC(=O)c1nc(C#CCc2ccccc2F)n(COCCO)n1", "value": ">50 µg/mL"}
{"compound": "O=c1ccoc2cc(-c3ccccc3)c(OCc3cccc(Br)c3)c(O)c12", "read by": "WST", "value": "39 µM"}
{"compound": "COc1ccccc1N1CCN(C(=O)CNc2ccc(S(=O)(=O)/N=C3\\NC(=O)/C(=C/c4ccccc4Cl)S3)cc2)CC1", "read by": "MTS", "value": ">80 µM"}
{"compound": "NC(=O)c1nc(C#CCc2ccc(C(F)(F)F)cc2)n(COCCO)n1", "value": "20 µg/mL"}
{"compound": "COc1cccc(COc2c(-c3ccccc3)cc3occc(=O)c3c2O)c1", "read by": "WST", "value": "45 µM"}

A second listing of 3 rows from above:

{"compound": "CNc1ncnc2c1ncn2[C@@H]1O[C@H](CO)[C@](O)(CN=[N+]=[N-])[C@H]1O", "read by": "WST", "value": ">100 µM"}
{"compound": "COc1ccccc1N1CCN(C(=O)CNc2ccc(S(=O)(=O)/N=C3\\NC(=O)/C(=C/c4ccc(-c5ccccc5)cc4)S3)cc2)CC1", "read by": "MTS", "value": ">75 µM"}
{"compound": "CC(=O)OC[C@H]1O[C@@H](n2c(=S)[nH]c3cc(C)ccc32)[C@H](OC(C)=O)[C@@H](OC(C)=O)[C@@H]1OC(C)=O", "value": ">101 µM"}